One assay has as its target AcpS (Escherichia coli, UniProt P24224). The experiment in a line: AcpS enzyme activity inhibition (IC50) by DNM compounds, [3H]acetyl-CoA / apo-ACP assay. To be noted: read-out: AcpS IC50, three individual replicates.
The next assay relates to MRSA (ATCC 33591). The experiment in a line: MIC, CLSI broth microdilution. The format is cell-based, S. aureus. To be noted: three individual replicates.

The chains behind the UniProt entries cited, without tags or fusion partners. Residues count along the entry.
UniProt P24224, 2-126 limits assumed: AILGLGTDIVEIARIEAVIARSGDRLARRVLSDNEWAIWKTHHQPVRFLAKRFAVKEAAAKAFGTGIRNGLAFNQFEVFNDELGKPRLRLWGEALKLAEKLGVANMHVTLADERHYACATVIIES

As to `CC(C)c1cc(Cl)ccc1-c1cc(-c2nnn[nH]2)sc1[C@@H]1CCCc2ccccc21`, the IC50 on AcpS came out at 10 µM. The same compound gave an MIC against MRSA (ATCC 33591) of 2 g/ml.
On the same counts, the results for `Cc1c(-c2nnn[nH]2)sc(-c2ccc(Cl)cc2)c1-c1ccc(Cl)cc1` are 14 µM and 1 g/ml.
For `Clc1ccc(Cc2cc(-c3nnn[nH]3)sc2-c2ccc(Cl)cc2)cc1` the same measures were 14 µM and 1 g/ml.

(Values after publication PMC11436758, “Computer-aided drug design to generate a unique antibiotic family” (Nature Communications, 2024).)
